Columns and labels:
Conditions in all cases: exposure time 48 h
[1] = system: Caenorhabditis elegans N2; test: mean nematode size ln(EXT) after 48 h, plate-adjusted (DMSO control set to 6) (ln(EXT), control-adjusted); higher = larger nematodes / less growth inhibition
Summary of the method: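 Synchronised C. elegans N2 L1 larvae (50 per well, 4–6 wells per treatment) were grown for 48 h at 20°C in K-medium with killed OP50, 1% DMSO and 0.5–200 µM chemical. The Biosort measured each worm's extinction, and debris was removed by a growth model. Values were natural-logged and averaged per well. Mean size was then plate-adjusted by subtracting the vehicle control mean and adding 6.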

[2] = system: Caenorhabditis elegans N2; test: AC50 for larval growth inhibition (Hill fit); higher = less potent
Summary of the method: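 Synchronised C. elegans N2 L1 larvae (50 per well, 96-well plates) were grown for 48 h at 20°C in K-medium with killed OP50, 1% DMSO and 0.5–200 µM chemical. The COPAS Biosort measured each worm's size as extinction, which was log-transformed and averaged per well. AC50 came from a constrained Hill fit by weighted genetic-algorithm regression on wells with at least 10 worms. Out-of-range values are censored.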

[3] = system: Caenorhabditis elegans N2; test: lowest effective concentration for larval growth inhibition (size below effect threshold); higher = less potent
Summary of the method: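 Log-transformed well means of per-worm extinction, read as size on a Biosort, came from 50 C. elegans N2 L1 larvae per 96-well grown 48 h at 20°C in K-medium with killed bacteria, 1% DMSO and 0.5 to 200 µM chemical. The lowest effective concentration is the first dose at which the plate-adjusted mean size is below the threshold and stays below it at every higher dose. The threshold is 5.665.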

In the case of `O=C1C2CC=CCC2C(=O)N1SC(Cl)(Cl)C(Cl)Cl` (configuration not stated) [Captafol], the “mean nematode size ln(EXT) (ln)” value ([1]; 0.5 µM) is reported as 5.73, the “mean nematode size ln(EXT) (ln)” value ([1]; 1 µM) is reported as 5.38 and the “mean nematode size ln(EXT) (ln)” value ([1]; 5 µM) is reported as 4.7. The “mean nematode size ln(EXT) (ln)” value ([1]; 10 µM) was 3.84, the “mean nematode size ln(EXT) (ln)” value ([1]; 50 µM) was 4.01 and the “mean nematode size ln(EXT) (ln)” value ([1]; 100 µM) was 3.95. The “mean nematode size ln(EXT) (ln)” value ([1]; 200 µM) was 3.59, the “AC50 for larval growth inhibition” value [2] was 2.71 µM and the lowest effective concentration [3] was 1 µM.
In the case of `CCCCOP(=O)(OCCCC)OCCCC` [Tributyl phosphate], the “mean nematode size ln(EXT) (ln)” value ([1]; 0.5 µM) is reported as 5.69, the “mean nematode size ln(EXT) (ln)” value ([1]; 1 µM) is reported as 5.77 and the “mean nematode size ln(EXT) (ln)” value ([1]; 5 µM) is reported as 5.68. For the same compound, the “mean nematode size ln(EXT) (ln)” value ([1]; 10 µM) was 5.75, the “mean nematode size ln(EXT) (ln)” value ([1]; 50 µM) was 5.7 and the “mean nematode size ln(EXT) (ln)” value ([1]; 100 µM) was 5.61. For the same compound, the “mean nematode size ln(EXT) (ln)” value ([1]; 200 µM) was 5.67 and the lowest effective concentration [3] was > 200 µM.

From the supplement of paper PMC4858399
